Compound potency records, mixed from different reports. Data source: NIAID ChemDB in PubChem.

All rows: growth or infection tests; species: Mycobacterium tuberculosis

Percent inhibition refers to the dose given; in toxicity tests it is the harm to the cells. Rows are shuffled and stem from different studies. MIC bound: limit read from a one-dose screen. ECn: concentration that inhibits the pathogen or its effect by n%. An empty or dashed field is not shown. Two numbers with a dash give a range or band. MIC50, MIC90 and the like: level of inhibition, or share of isolates inhibited.

compound,strain or isolate,changes,cell line,method,read-out,tested at,result
CC(C)C1CCC(=O)c2c1ncc1c2C(=O)C2=C(C1=O)C1CCC2C1,H37Rv,pSMT1 luciferase reporter plasmid,-,luminescence,EC99,-,48.06 µg/mL
NC(N)=Nc1ccc(-c2ccc(-c3ccc(N=C(N)N)cc3)s2)cc1,H37Rv,-,-,-,MIC,-,<1 µg/mL
CCCCn1c(=O)c2c3c(cnc2n(CCCC)c1=O)C(=O)C1=C(C3=O)C2CCC1CC2,H37Rv,pSMT1 luciferase reporter plasmid,-,luminescence,EC90,-,5.2 µg/mL
NCCNc1ccnc2cc(Cl)ccc12.[Cl][Pt][Cl],H37Rv,-,-,resazurin,MIC,-,15.6 µg/mL
c1ccc(CN[C@]23C4C5CC6C7C5C2C7[C@@](NCc2ccccc2)(C64)N3Cc2ccccc2)cc1,H37Rv,-,-,resazurin,inhibition,6.25 µg/mL,-1%
CCC[C@H]1C[C@@H]2CC[C@@H](O2)[C@H](C)C(=O)O[C@@H]([C@H](C)[C@H]2CC[C@@H](C[C@@H](CCC)N(C)C)O2)[C@H](C)[C@@H]2CC[C@@H](O2)[C@@H](C)C(=O)O1,14 isolates,-,-,-,MIC,-,1.5 µg/mL
CCCCCCCCC(=O)NNC(=O)c1ccncc1,H37Rv,-,-,-,MIC,-,0.025 µg/mL
COC(=O)c1nn2c(=O)c3cccc4cccc(c43)c2c1C(=O)OC,H37Rv,-,-,resazurin,MIC bound,-,>6.25 µg/mL
COc1cc(C(O)(CCN(C)C)C(c2cc(-c3ccccc3F)cnc2OC)c2cccc(OC)c2F)cc(OC)n1,H37Rv,-,-,fluorescence,EC90,-,9.96 µM
CCCc1ccc(NC(=O)c2cc(Cl)ccc2O)cc1,My 331/88,-,-,-,MIC,-,2 µM
O=C(O)c1cccc2c1Oc1ccccc1S2(=O)=O,H37Rv,-,-,BACTEC,MIC bound,-,>12.5 µg/mL
CN1C(=O)C2(CCC(=N)C(C#N)C2)c2ccccc21,H37Rv,-,-,-,MIC,-,0.1 µg/mL
CCCc1ccc(O)c2ncccc12,H37Rv,-,-,-,MIC50,-,>10 µg/mL
N#CC1(C#N)NC(c2cccnc2)C(C#N)(C#N)NC1c1cccnc1,H37Rv,-,-,resazurin,inhibition,6.25 µg/mL,1%
Cc1ccc([C@H]2[C@@H]3CSCN3[C@@]3(C(=O)Nc4ccc([N+](=O)[O-])cc43)[C@@]23Cc2ccccc2C3=O)cc1,H37Rv,-,-,agar,MIC99,-,25.1 µM
COc1ccc2cc1-c1cc(ccc1O)C[C@H]1c3cc4c(cc3CCN1C)Oc1c(OC)cc3c(c1O4)[C@@H](C2)N(C)CC3,H37Rv-PZA-R ATCC 35828,-,-,resazurin,MIC,-,6.2 µg/mL
NCCCCNc1ccnc2cc(Cl)ccc12,H37Rv,-,-,resazurin,MIC,-,250 µg/mL
COc1cc(C(O)(CCN(C)C)C(c2cc(-c3ccncc3)cnc2OC)c2cccc(OC)c2F)cc(OC)n1,H37Rv,-,-,fluorescence,EC90,-,28.06 µM
CC1COc2c(N3CCN(C)CC3)c(F)cc3c(=O)c(C(=O)O)cn1c23,-,-,-,-,MIC50,-,3.13 µg/mL
CCCCCCCc1ccc(NC(=O)c2ccc(Cl)cc2O)cc1,My 331/88,-,-,-,MIC,-,4 µM
CCCn1c(=O)c2c3c(cnc2n(CCC)c1=O)C(=O)C1=C(C3=O)C2CCC1CC2,H37Rv,pSMT1 luciferase reporter plasmid,-,luminescence,EC99,-,7.34 µg/mL
CCCCCCCc1ccc(NC(=O)c2cc(Br)ccc2O)cc1,My 331/88,-,-,-,MIC,-,8 µM
COc1cc(C(O)(CCN(C)C)C(c2cc(-c3ccc(F)cc3)cnc2OC)c2cccc(OC)c2F)cc(OC)n1,H37Rv,-,-,fluorescence,EC90,-,4.3 µM
Cc1c2[nH]c(C(=O)O)cc(=O)c2cc2c(=O)cc(C(=O)O)[nH]c12,H37Rv,-,-,BACTEC,MIC bound,-,>12.5 µg/mL
O=C1Nc2ccccc2[C@]12N1CSC[C@H]1[C@H](c1ccc(F)cc1)[C@]21Cc2ccccc2C1=O,H37Rv,-,-,agar,MIC99,-,13.7 µM
CCCCCCCCc1ccc(NC(=O)c2cc(Br)ccc2O)cc1,My 331/88,-,-,-,MIC,-,4 µM
CCN(CC)CCCC(C)Nc1nccc(/C=C/c2ccc(Cl)cc2)n1,H37Rv,-,-,resazurin,inhibition,6.25 µg/mL,56%
CO[C@H]1/C=C/O[C@@]2(C)Oc3c(C)c(O)c4c(O)c(c5c(c4c3C2=O)NC2(CCN(CC(C)C)CC2)N=5)=NC(=O)/C(C)=C\C=C\[C@H](C)[C@H](O)[C@@H](C)[C@@H](O)[C@@H](C)[C@H](OC(C)=O)[C@@H]1C,CSU22,-,-,-,MIC,-,>5 µg/mL
CCCCc1ccc(NC(=O)c2cc(Br)cc(Br)c2O)cc1,My 331/88,-,-,-,MIC,-,32 µM
O=C1Nc2ccccc2[C@]12N1CSC[C@H]1[C@H](c1ccccc1Cl)[C@]21Cc2ccccc2C1=O,H37Rv,-,-,agar,MIC99,-,26.4 µM
CCCCCn1c(=O)c2c3c(cnc2n(CCCCC)c1=O)C(=O)C1=C(C3=O)C2CCC1CC2,H37Rv,pSMT1 luciferase reporter plasmid,-,luminescence,EC90,-,4.78 µg/mL
CCN(CC)CCCC(C)Nc1ccnc2cc(Cl)ccc12,H37Rv,-,human red blood cells,broth dilution / radiometric,EC50,-,0.03 µM
CO[C@H]1/C=C/O[C@@]2(C)Oc3c(C)c(O)c4c(O)c(c(/C=N/N5CCN(C6CCCC6)CC5)c(O)c4c3C2=O)NC(=O)/C(C)=C\C=C\[C@H](C)[C@H](O)[C@@H](C)[C@@H](O)[C@@H](C)[C@H](OC(C)=O)[C@@H]1C,29 isolates,-,-,-,MIC50,-,0.06 µg/mL
CN1C(=O)C(CCC(=O)O)(CCC(=O)O)c2ccccc21,H37Rv,-,-,-,MIC,-,0.1 µg/mL
Cc1cnc(N)c(C(=O)O)n1,H37Rv,-,-,BACTEC,MIC bound,-,>12.5 µg/mL
CS/C(N)=N\N=C\c1ccnnc1,H37Rv (ATCC 27294),-,-,-,MIC,-,>100 µg/mL
CCCCCCCCO[C@H]1O[C@H](CO[C@H]2O[C@H](CNS(=O)(=O)c3ccc(C)cc3)[C@@H](O[Si](C)(C)C(C)(C)C)[C@@H]2O[Si](C)(C)C(C)(C)C)[C@@H](O[Si](C)(C)C(C)(C)C)[C@@H]1O[Si](C)(C)C(C)(C)C,H37Ra,-,-,-,MIC,-,>12.8 µg/mL
Oc1c(Br)cc(Br)c2cccnc12,M 607,-,-,-,MIC50,-,>25 µg/mL
O=C1Nc2ccc([N+](=O)[O-])cc2[C@]12N1CSC[C@H]1[C@H](c1cccc(Cl)c1Cl)[C@]21Cc2ccccc2C1=O,H37Rv,-,-,agar,MIC99,-,2.8 µM
Cc1ccc(/C=C(\C(N)=S)c2nc3ncccc3[nH]2)c(C)c1,109,-,-,-,MIC,-,7.8 µg/mL
Cc1ccc2cccc(O)c2n1,H37Rv,-,-,-,MIC50,-,>10 µg/mL
CCCCCCCCO[C@H]1O[C@H](CO[C@H]2O[C@H](CN(CC3CCCCC3)CC3CCCCC3)[C@@H](O)[C@@H]2O)[C@@H](O)[C@@H]1O,H37Ra,-,-,-,MIC,-,8 µg/mL
COc1ccc2cc1-c1cc(cc(Br)c1O)C[C@H]1c3cc4c(cc3CCN1C)Oc1c(OC)cc3c(c1O4)[C@H](C2)N(C)CC3,H37Rv-ETA-R ATCC 35830,-,-,resazurin,MIC,-,3.1 µg/mL
C#CCN(CC#C)CCNc1ccnc2cc(Cl)ccc12.[Cl][Pt+2][Cl],H37Rv,-,-,resazurin,MIC,-,>250 µg/mL
CCCCCCCCO[C@H]1O[C@H](CO[C@H]2O[C@H](CN)[C@@H](O)[C@@H]2O)[C@@H](O)[C@@H]1O,H37Ra,-,-,-,MIC,-,>12.8 µg/mL
Nc1nc(N)c(N=Nc2ccc(Cl)cc2)c(=O)[nH]1,H37Rv,-,-,BACTEC,MIC bound,-,>12.5 µg/mL
CCCCCn1c(=O)c2c3c(cnc2n(CCCCC)c1=O)C(=O)C1=C(C3=O)C2CCC1C2,H37Rv,pSMT1 luciferase reporter plasmid,-,luminescence,EC90,-,4.09 µg/mL
CO[C@H]1/C=C/O[C@@]2(C)Oc3c(C)c(O)c4c(O)c(c5c(c4c3C2=O)NC2(CCN(CC(C)C)CC2)N=5)=NC(=O)/C(C)=C\C=C\[C@H](C)[C@H](O)[C@@H](C)[C@@H](O)[C@@H](C)[C@H](OC(C)=O)[C@@H]1C,Strain 1 (STR-resistant),-,-,-,MIC,-,0.006 µg/mL
O=C1c2[nH]c3ccccc3c2CN1CCc1ccccc1,H37Rv,-,-,BACTEC,MIC bound,-,>12.8 µg/mL
CCCCCc1ccc(NC(=O)c2cc(Br)cc(Br)c2O)cc1,My 331/88,-,-,-,MIC,-,32 µM
CCn1c(=O)c2c3c(cnc2n(CC)c1=O)C(=O)C1=C(C3=O)C2CCC1CC2,H37Rv,pSMT1 luciferase reporter plasmid,-,luminescence,EC99,-,12.06 µg/mL
CC[C@@H](CO)NCCN[C@@H](CC)CO,H37Rv,-,-,fluorescence,MIC,-,3.13 µM
CCCCc1ccc(NC(=O)c2cc(Br)ccc2O)cc1,My 331/88,-,-,-,MIC,-,8 µM
CNC(=S)SC1=NS(=O)(=O)c2ccccc2N1,H37Rv,-,-,BACTEC,MIC bound,-,≤128 µg/mL
Cc1ccc([C@H]2[C@@H]3CSCN3[C@@]3(C(=O)Nc4ccc(Cl)cc43)[C@@]23Cc2ccccc2C3=O)cc1,H37Rv,-,-,agar,MIC99,-,51.3 µM
C#CCN(CC#C)CCNc1ccnc2cc(Cl)ccc12,H37Rv,-,-,resazurin,MIC,-,12.5 µg/mL
COc1ccc([C@H]2[C@@H]3CSCN3[C@@]3(C(=O)Nc4ccccc43)[C@@]23Cc2ccccc2C3=O)cc1,H37Rv,-,-,agar,MIC99,-,53.4 µM
COc1ccc(C2=Nn3c(nc4sc5c(c4c3=O)CCCC5)SC2)cc1,H37Rv,-,-,resazurin,MIC bound,-,>6.25 µg/mL
Cc1ccc(/C=C2\CN(C)CC3=C2NC(=S)NC3c2ccc(C)cc2)cc1,-,-,-,agar,MIC99,-,5.6 µM
O=C(Nc1ccc(C2=NCCCN2)cc1)c1ccc(C(=O)Nc2ccc(C3=NCCCN3)cc2)nc1,TAC-R,-,-,-,MIC,-,6.3 µg/mL
CC(C)n1c(=O)c2c3c(cnc2n(C(C)C)c1=O)C(=O)C1=C(C3=O)C2CCC1CC2,H37Rv,pSMT1 luciferase reporter plasmid,-,luminescence,EC90,-,2.32 µg/mL
COc1ccc2c(c1)C13CCN4CC5=CCOC6CC(=O)N2C1C6C5CC43,H37Rv,-,-,BACTEC,inhibition,12.5 µg/mL,-2%
CCCCCCCCO[C@H]1O[C@H](CO[C@H]2O[C@H](CNS(=O)(=O)c3ccc(C)cc3)[C@@H](O)[C@@H]2O)[C@@H](O)[C@@H]1O,H37Ra,-,-,-,MIC,-,>12.8 µg/mL
CN(C)C(=S)SCN1C(=O)c2ccccc2C1=O,TAC-R,-,-,-,MIC,-,0.8 µg/mL
COc1nc2ccc(Br)cc2cc1[C@@H](c1ccccc1)[C@@](O)(CCN(C)C)c1cccc2ccccc12,75 clinical isolates (41 susceptible 44 MDR),-,-,-,EC50,-,<0.128 µg/mL
Cc1ccc(NCCN(C)C)c2c(=O)c3cc(O)ccc3oc12,H37Rv,-,-,BACTEC,MIC,-,≥12.5 µg/mL
O=C(O)c1ccc2cccnc2c1O,H37Rv,-,-,-,MIC50,-,10 µg/mL
CC1(C)OC2C3OCC(O3)C(OS(C)(=O)=O)C2O1,H37Rv,-,-,BACTEC,MIC bound,-,>12.5 µg/mL
Cc1ccnc2c(O)cccc12,H37Rv,-,-,-,MIC50,-,0.5–1 µg/mL
CCOC(=O)CNC(=O)C(=[N+]=[N-])C(=O)COc1ccc(F)cc1,H37Rv,-,-,BACTEC,inhibition,12.5 µg/mL,-9%
CCCCS/C(N)=N\N=C\c1ccnnc1,H37Rv (ATCC 27294),-,-,-,MIC,-,25 µg/mL
CCN(CC)CCCN(C)Cc1c(-c2ccccc2)oc(-c2ccccc2)c1Cl,H37Rv,-,-,BACTEC,MIC bound,-,≤12.5 µg/mL
CO[C@H]1/C=C/O[C@@]2(C)Oc3c(C)c(O)c4c(O)c(c(/C=N/N5CCN(C6CCCC6)CC5)c(O)c4c3C2=O)NC(=O)/C(C)=C\C=C\[C@H](C)[C@H](O)[C@@H](C)[C@@H](O)[C@@H](C)[C@H](OC(C)=O)[C@@H]1C,CSU22,-,-,-,MIC,-,>5 µg/mL
O=C1c2ccccc2C(=O)N1N1C(=O)C2C3CCC(O3)C2C1=O,H37Rv,-,-,BACTEC,MIC bound,-,>12.5 µg/mL
O=C1Nc2ccc(Cl)cc2[C@]12N1CSC[C@H]1[C@H](c1cccs1)[C@]21Cc2ccccc2C1=O,H37Rv,-,-,agar,MIC99,-,52.2 µM
S=C1NCCNC(=S)SSC(=S)SS1,H37Rv,-,-,BACTEC,MIC bound,-,≤12.5 µg/mL
CCN1C(=O)C2(CCC(=O)CC2)c2ccccc21,H37Rv,-,-,-,MIC,-,0.05 µg/mL